Measurements taken from article PMC12269619.

T1: Biotinylated junctional peptide Pep21 (PfCSP peptide 21), Q7K740
T1 chain: NPDPNANPNVDPNAN


Target: T1, Biotinylated junctional peptide Pep21 …
Experiment: BLI
Settings: chain shown with the change;; parent: est. 21; read off a plot

Binder | Kd [nM]
m43.151 Fab H:T96M (protein) chain 1: QVHLVQSGAEVKKPGASVKVSCKASGYTFTSYAIHWVRQAPGQRLEWMGWIKGGNGNTRYSQKFQDRVTITRDTSASTAYMELSSLRSEDTAVYYCALLMVITPDDAFDIWGQGTMVTVSS chain 2: DIVMTQSPDSLAVSLGERATINCKSSQNILYSSNNKNYLAWYQQKPGQPPKLLFYWASTRESGVPDRFSGSGSGTDFTLTISSLQAEDVAVYYCHQYYSSPLTFGGGTKVEIK | 19
m43.151 Fab H:A100cR (protein) chain 1: QVHLVQSGAEVKKPGASVKVSCKASGYTFTSYAIHWVRQAPGQRLEWMGWIKGGNGNTRYSQKFQDRVTITRDTSASTAYMELSSLRSEDTAVYYCALLTVITPDDRFDIWGQGTMVTVSS chain 2: DIVMTQSPDSLAVSLGERATINCKSSQNILYSSNNKNYLAWYQQKPGQPPKLLFYWASTRESGVPDRFSGSGSGTDFTLTISSLQAEDVAVYYCHQYYSSPLTFGGGTKVEIK | 14
